Laboratory results reported in US10774053B2, “HIV protease inhibitors” (Gilead Sciences, Inc., priority 2017, dated 2020).

Columns and labels:
[1] = system: HIV-1 (IIIB) in MT-4 cells; details: read-out: MT4 EC50
[2] = Liver microsomal stability, human liver microsomes; details: human liver microsomes 0.5 mg/mL, 1 uM compound, NADPH-regenerating system, 37° C.

CC(C)(C)C[C@]1(c2ccc(-c3nncn3C(F)F)cc2F)NC(=N)N([C@H](COC(=O)NC2(C(F)(F)F)CC2)c2ccc(Cl)c(-n3ncnc3C(F)F)c2)C1=O
EC50 [1]: 76.7 nM | Half-life in human liver microsomes [2]: ≥ 395 min
